Assays:
Assay type in all cases: functional
[1] = tested on: Burkholderia pseudomallei; experiment: Antimicrobial activity against Burkholderia pseudomallei KHW in presence of 250 uM chlorpromazine
[2] = tested on: Burkholderia pseudomallei; experiment: Antimicrobial activity against Burkholderia pseudomallei KHW in presence of 1000 uM omeprazole
[3] = tested on: Burkholderia pseudomallei; experiment: Antimicrobial activity against Burkholderia pseudomallei KHW in presence of 500 uM promazine

Measured: MIC

C[C@H]1COc2c(N3CCN(C)CC3)c(F)cc3c(=O)c(C(=O)O)cn1c23.C[C@H]1COc2c(N3CCN(C)CC3)c(F)cc3c(=O)c(C(=O)O)cn1c23.O [LEVOFLOXACIN]
1 µg/mL: [1] | [2] | [3]
